Our source for the inhibition values is PubChem BioAssay AID1242 (PCMD, 2008).

The entries are a selection whose mix differs from that of the whole data set. Active and inactive are the calls of the source.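 The calls were made as follows: active = inhibition above 30.3% in the primary screen of four-compound pools, then above 30% when the compound was retested; inconclusive = passed the primary limit but could not be retested; inactive = the rest.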

What is called inhibition is the relative decrease from the control value, in per cent.

The nature of the experiment: clotrimazole potentiators killing C. albicans biofilm, primary screen, 4-compound mixtures (AID 1242).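 Also: compounds exposed to preformed 24 h biofilms for 48 h; 0% = untreated biofilm control and 100% = clotrimazole plus chlorhexidine kill blank.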 Conditions: C. albicans biofilm persisters + clotrimazole, fluorescence viability; primary screen in compound mixtures of four per well; at 7.6 µM; hits give high values. A digest of the protocol: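 System: C. albicans CAF4-2 wild-type biofilms; Medium: RPMI/MOPS medium, pH 7.0; Reagent: Clotrimazole, 50 µg/mL; Times: biofilm formation 24 h, compound exposure 48 h, 37 °C; Detection: 2-h Alamar Blue fluorescence, 535/590 nm excitation/emission; Evaluation: percent inhibition of biofilm viability.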
For the molecule `N#Cc1ccc(C(=O)NCC2(N3CCCCC3)CCCCC2)cc1`, the inhibition is inactive: 16.7%.

On to `O=C(OC1CN2CCC1CC2)C1c2ccccc2C=Cc2ccccc21` (stereo not given), for which the inhibition was inactive: 13.9%.

Regarding `COc1ccc(C(=O)NCC2(N3CCOCC3)CCCCC2)cc1OC`, the inhibition was inactive: 15.2%.

For the molecule `COc1cc(OC)cc(C(=O)NCC2(N3CCOCC3)CCCCC2)c1`, the inhibition was inactive: 12.9%.

Take `CCCOc1ccc(C)cc1CN(CCCl)CCCl`: the inhibition was inactive: 13.2%.

For `CC(C)(C)OC(=O)N1CCC(Nc2ccccc2)CC1`, the inhibition was inactive: 7.45%.

As to `CCN1CCC(Nc2cccc(F)c2)CC1`, the inhibition was inactive: 14.8%.

`CN(C)c1ccc(C(=O)NCC2(N3CCCCC3)CCCCC2)cc1`: the inhibition is inactive: 7.46%.

In the case of `Fc1ccccc1NC1CCN(Cc2ccccc2)CC1`, the inhibition is inactive: 9.31%.

As to `Cc1ccc(OCC(C)C)c(CN(CCCl)CCCl)c1`, the inhibition was inactive: 21.5%.

`CCOc1ccc(C)cc1CN(CCCl)CCCl`: the inhibition was inactive: 12.8%.

With `N#CC1(Nc2ccccc2)CCN(Cc2ccccc2)CC1`, the inhibition is inactive: 15%.

Take `CCOC(=O)N1CCC(Nc2ccc(OC)cc2)CC1`: the inhibition is inactive: 7.02%.

In the case of `COc1ccc(C(=O)NCC2(N3CCCCC3)CCCCC2)c(OC)c1OC`, the inhibition was inactive: 12.7%.

On to `CC(C)c1ccc(NC2CCN(C(=O)OC(C)(C)C)CC2)cc1`, for which the inhibition was inactive: 1.12%.

Regarding `CN(C)c1cccc(C(=O)NCC2(N3CCCCC3)CCCCC2)c1`, the inhibition was inactive: 9.33%.

As for `COc1ccc(CN(CCCl)CCCl)cc1Cl`, the inhibition is inactive: 13.6%.

For `CN1CCN(CCOC(=O)C(O)(c2ccccc2)c2ccccc2)CC1`, the inhibition is inactive: 14%.

For `COc1ccc(NC2CCN(C(=O)OC(C)(C)C)CC2)cc1`, the inhibition is inactive: -1.73%.

On to `O=C(NCC1(N2CCCCC2)CCCCC1)c1cccc([N+](=O)[O-])c1`, for which the inhibition was inactive: 7.41%.
